Anti-infective test results gathered from many reports (values: NIAID ChemDB through PubChem).

All rows: growth or infection tests; species: HIV-1; method: p24; endpoint: EC50

ECn: concentration that inhibits the pathogen or its effect by n%. Neighbouring rows are from separate reports. An empty or dashed field is not shown.

SMILES	conditions	mutations	cell line	strain	value
Cc1cn([C@H]2C[C@H](N=[N+]=[N-])[C@@H](CO)O2)c(=O)[nH]c1=O			C8166	IIIB	0.04 µM
Nc1cc(Cl)nc(SC/C=C/c2ccccc2)n1			MT-4	RT-WT	<0.15 µM
Nc1ccn([C@H]2CC[C@@H](CO)O2)c(=O)n1		RT-K65R M184V	CBMC	HXB2-D (RT K65R M184V)	2.9 ± 0.4 µM
Cc1cn([C@H]2C[C@H](N=[N+]=[N-])[C@@H](CO)O2)c(=O)[nH]c1=O			U-937	BRU	0.2 µM
C[C@H](Sc1nc(N)cc(Cl)n1)c1cc2ccoc2cn1			MT-4	IIIB	<0.001 µM
CCOC(=O)c1cn([C@@H]2O[C@H](CO[Si](C)(C)C(C)(C)C)C3(OS(=O)(=O)C=C3N)[C@H]2O[Si](C)(C)C(C)(C)C)nn1			CEM	HE	0.28 µM
Nc1ncnc2c1ncn2[C@H]1CC[C@@H](CO)O1			ATH8	LAV	5 µM
CC1(C)Oc2ccc3ccc(=O)oc3c2[C@@H](OC(=O)C23CCC(C)(C(=O)O2)C3(C)C)[C@H]1OC(=O)C12CCC(C)(C(=O)O1)C2(C)C	28 d		Monocytes		~0.000016 µM
CC(C)=C1C=C(C(C)C)C(O)CC1			Jurkat cells	IIIB	>0.1 µM
COc1ccc(S(=O)(=O)N(CC(C)C)C[C@@H](O)[C@H](Cc2ccccc2)NC(=O)O[C@H]2CO[C@H]3OCC[C@H]32)cc1			PBMC	Ba-L Laboratory isolate	0.0003 µM
CCCN(C)C(=O)Oc1nsnc1-c1c(Cl)cccc1Cl			PBMC	IIIB	0.0048 µM
CC(C)(C)NC(=O)[C@@H]1CCCN1C(=O)[C@@H](O)[C@@H]1Cc2ccc(cc2)OCCCOc2cc3ccccc3cc2C(=O)N[C@@H](CC(N)=O)C(=O)N1			MT-2	RF	0.076 µM
Nc1cc(Cl)nc(SCc2cccc(Br)c2)n1			MT-4	RT-WT	<0.35 µM
COc1ccc(CN[C@@H](C(=O)N[C@H](C(=O)NCc2nc3ccccc3[nH]2)C(C)C)[C@H](O)[C@H](Cc2ccccc2)NC(=O)[C@@H](NC(=O)OCc2ccccc2)C(C)(C)C)cc1	clinical isolate		Primary T4 lymphocytes + T4	HEM	0.01 µM
Clc1ccc(-n2cccc2)cc1			PBMC	IIIB	>80 µg/mL
Cc1ccc(-c2ccc3c(c2)C=C(C(=O)Nc2ccc(C[N+](C)(C)C4CCOCC4)cc2)CCC3)cc1			PBMC	BaL	0.0055 µM
C=CCN(C(=O)NCc1ccc([N+](=O)[O-])cc1)C1CCN(CC[C@H](CN(C)S(=O)(=O)c2ccccc2)c2ccccc2)CC1			PBMC	YU2	<0.25 µM
CC(C)c1nc(CN(C)C(=O)N[C@H](C(=O)N[C@@H](Cc2ccccc2)C[C@H](O)[C@H](Cc2ccccc2)NC(=O)OCc2cncs2)C(C)C)cs1		PR-L10I I15V E35D N37E K45R I54V L63P A71V V82T L90M I93L C95F	PBMC	Clinical isolate	>1 µM
CCCCCCCCCc1ccc(OCCOCCOCCOCCOCCOCCOCCOCCOCCO)cc1			PBMC	IIIB	2.195 µM
CC(=O)CCCCn1c(=O)c2c(ncn2C)n(C)c1=O			PBMC	IIIB	200 µM
CCCc1cn([C@@H]2O[C@H](CO[Si](C)(C)C(C)(C)C)C3(OS(=O)(=O)C=C3N)[C@H]2O[Si](C)(C)C(C)(C)C)nn1			CEM	HE	1.7 µM
CCc1cc(CCc2nc3ccccc3o2)c(=O)[nH]c1C			H9	IIIB	<0.1 µM
Cc1cn([C@H]2C[C@H](N=[N+]=[N-])[C@@H](CO)O2)c(=O)[nH]c1=O			PBMC	BaL	0.004 µM
CC(C)(C)NC(=O)[C@@H]1C[C@@H]2CCCC[C@@H]2CN1C[C@@H](O)[C@H](Cc1ccccc1)NC(=O)[C@H](CC(N)=O)NC(=O)c1ccc2ccccc2n1		PR-L10R N37D M46I I62V L63P A71V G73S V77I V82T L90M I93L	PBMC	Clinical isolate	0.042 µM
CC(C)Nc1cccnc1N1CCN(C(=O)c2cc3cc(NS(C)(=O)=O)ccc3[nH]2)CC1			PBMC	JR-CSF	0.008 µM
CCC[C@@]1(CCc2ccccc2)CC(O)=C([C@H](CC)c2cccc(NS(=O)(=O)c3ccc(C(F)(F)F)cn3)c2)C(=O)O1		PR-L10L/I K20R M36I I54V A71I/V V82A I84I/V L90M	PBMC	Clinical isolate	0.268 µM
CCC(=C/[C@H](C)C/C=C/C(C)=C/[C@@H](C)C(=O)[C@@H](C)[C@H](O)[C@@H](C)C/C(C)=C/C(=O)O)/C=C/[C@@H]1OC(=O)C=C[C@@H]1C			HeLa	BaL	0.0006 µM
O=C(O)P(=O)(O)O			PBMC	8848 CLADE C CLADE C	17.3 µM
Nc1ccn([C@H]2CC[C@@H](CO)O2)c(=O)n1			U-937	BRU	0.04 µM
O=C(Nc1ncc[nH]1)c1cccc(CN2C(=O)N(Cc3cccc(C(=O)Nc4ncc[nH]4)c3)[C@H](Cc3ccccc3)[C@H](O)[C@@H](O)[C@H]2Cc2ccccc2)c1			MT-2	RF	<0.0019 µM
CCCN(C(=O)OCc1cccc(C)c1)C1CCN(CCC(CN(C)S(=O)(=O)c2ccccc2)c2ccccc2)CC1			PBMC	YU-2 (M-tropic)	<1 µM
NC(=O)NO			CEM	IIIB	>100 µM
CC(C)(C)NC(=O)[C@@H]1[C@@H](Cl)CCN1C(=O)[C@@H](O)[C@H](Cc1ccccc1)NC(=O)[C@H](CC(N)=O)NC(=O)OCc1ccccc1			CEM	IIIB	<1.5 µM
CCN(C(=O)OCc1ccccc1)C1CCN(CCC(CN(C)S(=O)(=O)c2ccccc2)c2ccccc2)CC1			PBMC	YU2	<13 µM
O=C(c1ccccc1)c1cnc(Cc2ccc(Nc3c(Cl)cccc3Cl)cc2)[nH]1		gp120 F145L N269E Q278H I288V N293D FNSTW364-368 deletion	MT-4	NL4-3	>2 µg/mL
CN(C)C(=O)/C=C/CSc1nc(N)cc(Cl)n1			MT-4	RT-WT	<0.09 µM
CCCN(C(=O)OCc1ccc([N+](=O)[O-])cc1)C1CCN(CC[C@H](CN(C)S(=O)(=O)c2ccccc2)c2ccccc2)CC1			PBMC	YU-2 (M-tropic)	<0.1 µM
CCCN(C(=O)OCc1ccc(C(N)=O)cc1)C1CCN(CC[C@H](CN(C)S(=O)(=O)c2ccccc2)c2cccc(Cl)c2)CC1			PBMC	YU2	<0.4 µM
CC[C@H](C)C=C(C)/C=C/C1=CC2=C(Cl)C(=O)[C@](C)(O)[C@H](CC(C)=O)C2=CO1			PBL		<25 µM
O=C(NCc1ccc(F)cc1)c1nc(N2CCCCS2(=O)=O)c2cccnc2c1O		INTG-T66I S153Y			0.02 µM
CCCN(C(=O)Nc1ccccc1)C1CCN(CCC(CN(C)S(=O)(=O)c2ccccc2)c2ccccc2)CC1			PBMC	YU2	<6 µM
CN(C)CCCn1c2ccc(O)cc2c2c3c(c4c5cc(O)ccc5[nH]c4c21)C(=O)NC3=O			U1/HIV-1(+PMA) + U1		0.036 µM
O=S(=O)([O-])[O-].[O]=[V+2]	7 d		HUT/CCR5 + HUT	BaL	>5 µM
CCc1cc(CCc2nc3ccccc3o2)c(=S)[nH]c1C		RT-K103N Y181C	H9	A17	<25 µM
CC(C)(C)NC(=O)[C@@H]1C[C@H](Cl)CN1C(=O)[C@@H](O)[C@H](Cc1ccccc1)NC(=O)[C@H](CC(N)=O)NC(=O)c1cnc2ccccc2n1			CEM	IIIB	<0.12 µM
CCN(C(=O)OCc1ccccc1)C1CCN(CC[C@](C)(CN(C)S(=O)(=O)c2ccccc2)c2ccccc2)CC1			PBMC	YU-2 (M-tropic)	<0.5 µM
Nc1ccn([C@H]2CC[C@@H](CO)O2)c(=O)n1			H9	LAV	<10 µM
CC(C)(C)NC(=O)[C@@H]1C[C@H](Cl)CN1C(=O)[C@@H](O)[C@H](Cc1ccccc1)NC(=O)[C@H](CC(N)=O)NC(=O)c1noc2ccccc12			CEM	IIIB	<0.16 µM
C=CCN(C(=O)OCc1ccccc1)C1CCN(CCC(CN(C)S(=O)(=O)c2ccccc2)c2ccccc2)CC1			PBMC	YU2	<0.8 µM
C=CCN(C(=O)OCc1ccc([N+](=O)[O-])cc1)C1CCN(CC[C@](C)(CN(C)S(=O)(=O)c2ccccc2)c2ccccc2)CC1			PBMC	YU-2 (M-tropic)	<0.008 µM
Cc1cn([C@H]2C[C@H](N=[N+]=[N-])[C@@H](CO)O2)c(=O)[nH]c1=O			PBMC	RF	<0.125 µM
C=CCN(C(=O)OCc1ccccc1)C1CCN(CC[C@](CO)(CN(C)S(=O)(=O)c2ccccc2)c2ccccc2)CC1			PBMC	YU-2 (M-tropic)	<0.055 µM
C=CCN(C(=O)Cc1ccc([N+](=O)[O-])cc1)C1CCN(CCC(CN(C)S(=O)(=O)c2ccccc2)c2ccccc2)CC1			PBMC	YU2	<0.05 µM
CC(=O)O[C@@H]1[C@H](OC(=O)CC(C)C)c2c(ccc3ccc(=O)oc23)OC1(C)C	6 d		Monocytes		<20 µg/mL
Cc1cn([C@H]2C[C@H](N=[N+]=[N-])[C@@H](CO)O2)c(=O)[nH]c1=O			PBMC	BaL	<0.01 µM
CN(CC(CCN1CCC(NC(=O)NCc2ccccc2)CC1)c1ccccc1)S(=O)(=O)c1ccccc1			PBMC	YU2	<0.1 µM
Cc1cn([C@H]2CC[C@@H](CO)O2)c(=O)[nH]c1=O			ATH8	LAV	200 µM
CCN(C(=O)OCc1ccccc1)C1CCN(CC[C@H](CN(C)S(=O)(=O)c2ccccc2)c2cccc(Cl)c2)CC1			PBMC	YU2	<13 µM
Nc1ccn([C@H]2CC[C@@H](CO)O2)c(=O)n1			PBMC	RF	0.01 µM
COc1cc([C@@H]2c3cc4c(cc3[C@@H](O[C@@H]3O[C@@H]5CO[C@@H](C)O[C@H]5[C@H](O)[C@H]3O)[C@H]3COC(=O)[C@H]23)OCO4)cc(OC)c1O			H9	IIIB	0.03 µM
C=CCN(C(=O)OCc1ccc([N+](=O)[O-])cc1)C1CCN(CCC(CN(C)S(=O)(=O)c2ccccc2)c2ccccc2)CC1			PBMC	YU2	<0.2 µM